Taken from: PubChem BioAssay AID1259414 (Drosophila RNAi Screening Center, 2018)
Screen: 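Fly genes that alter Wolbachia amount inside host cells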 (primary screen). Cells: Drosophila JW18 cells infected with Wolbachia. Reagents: long dsRNA against Drosophila genes, 0.25 µg dsRNA per well of a 384-well plate. Timing: 5 days. Conditions: cells persistently infected with Wolbachia before knock-down; no added drug. Measured: 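Automated imaging of bacterial rRNA staining divided by host cell count, reported as plate-normalised robust z-score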. Scale: Wolbachia per cell robust z: higher = more Wolbachia per host cell than the plate typical. Call rule: 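Hit when robust z is 1.5 or more, or -1.5 or less, in at least two of three replicates; excludes dsRNAs with several or no targets, genes not expressed in JW18 and well A1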.
The deposit covers about 24,000 reagents; below is a random part of those with a known target gene and a result. Of all reagents, about 1,210 (5%) were called active. 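Inactive calls also include excluded dsRNAs with several or no targets, genes unexpressed in JW18, and well A1, regardless of score.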 Names joined by + are all predicted targets of the reagent.

Gene	DRSC id	Wolbachia per cell robust z, rep 1	Wolbachia per cell robust z, rep 2	Wolbachia per cell robust z, rep 3	Outcome
in (inturned)	DRSC11888	-2.34	0.0166	-2	inactive
snoRNA:Me18S-G1620 + snoRNA:U14:30Ea + Uhg2	DRSC01100	-0.294	-0.668	-0.272	inactive
Cyp6d2 (Cytochrome P450 6d2)	DRSC04606	0.195	-0.0296	-0.399	inactive
Cyp6d2 (Cytochrome P450 6d2)	DRSC25647	1.46	0.358	0.346	inactive
Cyp18a1 (Cytochrome P450 18a1)	DRSC20235	-0.314	-0.595	0.125	inactive
Cyp18a1 (Cytochrome P450 18a1)	DRSC27063	0.487	1.07	0.295	inactive
Ephrin	DRSC17165	-3.52	0.585	0.764	inactive
TwdlP (TweedleP)	DRSC14734	0.312	-1.61	-2.17	inactive
CG2691	DRSC19866	0.413	-6.41	0.218	inactive
spin (spinster)	DRSC07176	0.562	0.512	0.561	inactive
spin (spinster)	DRSC22271	0.145	1.03	-0.537	inactive
Atx-1 (Ataxin 1)	DRSC18365	0.794	0.788	-1.72	inactive
pasha (partner of drosha)	DRSC15295	-0.071	-0.108	-1.45	inactive
pasha (partner of drosha)	DRSC27821	-0.281	1.5	1.25	inactive
lncRNA:CR32661 (long non-coding RNA:CR32661)	DRSC28066	-2.67	-0.983	-1.28	inactive
CG12576	DRSC20621	-0.176	0.495	-0.121	inactive
CG12576	DRSC26254	-0.915	0.0912	-0.394	inactive
Dh31-R (Diuretic hormone 31 Receptor)	DRSC06669	-0.114	-0.199	-1.94	inactive
Dh31-R (Diuretic hormone 31 Receptor)	DRSC23417	0.865	-0.624	1.56	inactive
CG18518	DRSC01509	1.16	0.0618	-1.06	inactive
CG8860	DRSC07291	0.153	0.505	-0.0781	inactive
CG8860	DRSC25286	-0.357	0.781	1.25	inactive
Ugt35A1 (UDP-glycosyltransferase family 35 member A1)	DRSC16892	0.527	0.956	-0.781	inactive
Ugt35A1 (UDP-glycosyltransferase family 35 member A1)	DRSC25438	0.528	0.686	0.352	inactive
CG11417	DRSC18581	1.58	0.23	0.479	inactive
Nsf2 (N-ethylmaleimide-sensitive factor 2)	DRSC22104	0.878	0.705	1.02	inactive
Nsf2 (N-ethylmaleimide-sensitive factor 2)	DRSC27428	-5.23	-0.949	-0.943	inactive
CG7806	DRSC03071	-1.19	-7.34	1.41	inactive
CG13551	DRSC21847	-0.451	-1.64	-0.178	inactive
CG13551	DRSC41274	0.235	0.0564	-0.324	inactive
mrj	DRSC22592	0.809	0.869	-0.294	inactive
mrj	DRSC25295	-0.459	0.624	0.916	inactive
HemK2 + Snapin	DRSC00736	-2.25	1.41	-0.193	inactive
CG7546	DRSC08885	0.0556	0.161	-0.982	inactive
CG7546	DRSC10871	-2.76	-0.811	-2.33	inactive
CG7546	DRSC22148	-0.103	0.42	-0.404	inactive
CG7650	DRSC10898	1.34	0.699	0.705	inactive
CG7650	DRSC29711	-3.46	0.657	0.0833	inactive
CG10512	DRSC11615	0.197	-0.701	-0.262	inactive
CG10512	DRSC27914	1.46	1.27	0.709	inactive
CG14204	DRSC19559	0.575	0.828	1.02	inactive
CG14204	DRSC29941	-1.03	-1.53	0.471	inactive
CG14495	DRSC06466	0.741	0.843	0.665	inactive
CG13614	DRSC14617	-0.0587	-1.34	0.11	inactive
CG10055	DRSC12503	-0.00194	-1.14	-1.61	inactive
CG33136	DRSC05744	0.398	2.92	2.97	inactive
CG33136	DRSC29014	-1.3	0.413	-0.419	inactive
Sytalpha (Synaptotagmin alpha)	DRSC02869	-1.23	-0.125	0.331	inactive
CG33647	DRSC37823	-6.83	-0.452	-0.958	inactive
CG40006	DRSC03787	-0.447	-0.222	0.446	inactive
CG40006	DRSC03809	0.689	0.552	-0.729	inactive
CG40006	DRSC03814	0.662	-0.284	-2.5	inactive
CG40006	DRSC03817	0.611	-0.683	-0.018	inactive
C3G (C3G guanyl-nucleotide exchange factor)	DRSC17929	0.32	-0.362	-1.55	inactive
C3G (C3G guanyl-nucleotide exchange factor)	DRSC23077	0.441	1.54	1.18	inactive
C3G (C3G guanyl-nucleotide exchange factor)	DRSC29081	0.264	0.681	0.623	inactive
NaCP60E (Na channel protein 60E)	DRSC04307	-1.49	0.0462	-1.27	inactive
NaCP60E (Na channel protein 60E)	DRSC21351	0.616	0.993	0.745	inactive
NaCP60E (Na channel protein 60E)	DRSC26120	0.551	-1.05	-4.42	inactive
CG6959	DRSC16151	-0.829	-0.0229	-1.66	inactive
CG6005	DRSC15945	0.807	0.642	-1.98	inactive
CG15059	DRSC19633	0.669	0.87	0.281	inactive
CG15059	DRSC28667	-0.346	-0.401	0.251	inactive
CG15059	DRSC39001	0.318	0.224	0.186	inactive
CG15059	DRSC40663	0.855	0.952	-0.788	inactive
Yip1d1 (Yip1 domain-containing 1)	DRSC02166	-0.455	0.139	-0.588	inactive
RnrL (Ribonucleoside diphosphate reductase large subunit)	DRSC03413	2.23	2.03	1.77	active
CG15369	DRSC18041	-0.122	0.388	-0.682	inactive

Reagents above marked active, once more:
Gene	DRSC id	Wolbachia per cell robust z, rep 1	Wolbachia per cell robust z, rep 2	Wolbachia per cell robust z, rep 3	Outcome
RnrL (Ribonucleoside diphosphate reductase large subunit)	DRSC03413	2.23	2.03	1.77	active
